Experimental data as given in publication PMC8628512.

Chains of the proteins cited; added tags and fusions are not shown. Lines headed by an entry give the natural chain unless they say otherwise; changes in a name come on top. Chains listed by the source or under a name are the forms on record and can include a tag or linker. Residues count along the entry.
UniProt P02745, 23-245: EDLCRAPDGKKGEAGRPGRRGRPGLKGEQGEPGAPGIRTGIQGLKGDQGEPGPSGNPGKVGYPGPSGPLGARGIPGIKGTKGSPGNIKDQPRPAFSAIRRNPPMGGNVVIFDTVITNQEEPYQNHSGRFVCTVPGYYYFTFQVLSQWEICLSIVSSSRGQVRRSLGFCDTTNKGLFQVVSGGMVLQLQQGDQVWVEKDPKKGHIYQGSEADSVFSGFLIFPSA
C1q native protein, UniProt P02746, 28-253: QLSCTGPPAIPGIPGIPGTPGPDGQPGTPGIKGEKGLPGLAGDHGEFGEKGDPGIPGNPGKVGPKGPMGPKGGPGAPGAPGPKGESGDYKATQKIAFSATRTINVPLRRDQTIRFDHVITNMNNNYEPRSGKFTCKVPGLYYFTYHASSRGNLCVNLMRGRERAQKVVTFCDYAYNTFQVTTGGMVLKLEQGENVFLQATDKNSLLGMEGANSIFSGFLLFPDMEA
C1q native protein, UniProt P02747, 29-245: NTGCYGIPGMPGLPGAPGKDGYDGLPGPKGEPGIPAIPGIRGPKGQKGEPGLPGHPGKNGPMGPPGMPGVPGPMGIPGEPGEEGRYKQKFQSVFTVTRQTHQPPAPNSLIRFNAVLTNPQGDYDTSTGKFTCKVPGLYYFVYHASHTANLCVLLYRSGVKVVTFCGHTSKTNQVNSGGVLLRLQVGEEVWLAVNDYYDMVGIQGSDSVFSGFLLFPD
MD65-AG, a-glycosylated (AG) Fc format of MD65 (N297G/S298G/T299A on the YTE backbone) (human), heavy, as listed by the source, chain 1 of 2: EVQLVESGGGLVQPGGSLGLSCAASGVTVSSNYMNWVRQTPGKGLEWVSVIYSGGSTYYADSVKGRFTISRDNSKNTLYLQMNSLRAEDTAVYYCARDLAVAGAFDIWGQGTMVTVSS
MD65-AG, a-glycosylated (AG) Fc format of MD65 (N297G/S298G/T299A on the YTE backbone) (human), light, as listed by the source, chain 2 of 2: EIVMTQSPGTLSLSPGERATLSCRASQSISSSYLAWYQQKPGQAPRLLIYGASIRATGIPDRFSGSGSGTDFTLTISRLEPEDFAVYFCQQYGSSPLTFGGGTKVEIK

Molecular target: MD65-AG, a-glycosylated (AG) Fc format of MD65 (N297G/S298G/T299A on the YTE backbone) (human)
Experiment: BLI; Octet, 30 °C, 1500 rpm; Fab2G sensors loaded with antibody at 10 µg/mL; C1q native protein 250 nM, 180 s association, 180 s dissociation; MD65-Fab sensor subtracted

Q: “C1q native protein (from UniProt P02745 23-245; P02746 28-253; P02747 29-245) (complex)” was tested. Which fold lower affinity than toward MD65 did it give?
A: The fold lower affinity than toward MD65 was 260 fold.
